Laboratory results reported in patent US20250170127A1, “RE-SENSITIZING MULTIDRUG-RESISTANT (MDR) GRAM-NEGATIVE BACTERIA TO COLISTIN USING IONOPHORES” (The Regents of the University of Colorado, a body corporate, priority 2022, published 2025).

test system: HeLa cells; type: cell-based, human; settings: GI50 in HeLa / MRC in AR-0493
Method: These 10 compounds were tested for their MICs and minimum re-sensitizing concentrations (MRCs) in the presence colistin at 2 μg/mL in E. coli AR-0493. […] To evaluate their toxicity in mammalian cells, the present inventors treated human epithelial adenocarcinoma HeLa cells with each compound at a wide range of concentrations.
To evaluate the mammalian toxicity of these analogs, Applicants tested them in cell viability assay using human cervical adenocarcinoma HeLa cells. Their respective half maximal growth inhibition concentration (GI50) was calculated using KaleidaGraph. The selectivity index (SI) for each compound was also calculated as the ratio of their GI50 and MRC. […] Therefore, Applicants selected two bisanilino analogs, 7l and 7m, that bear chlorines at the meta- and para-positions, respectively, of the phenyl groups for further characterization studies. […]. […] Their mammalian toxicities were also evaluated, and SIs calculated. […] Applicants we next explored the scope of analogs 71 and 7m their colistin-potentiating activity in 8 different MDR Gram negative bacteria with diverse genetic backgrounds and resistance mechanisms (Table 7). All strains were obtained from CDC and FDA Antibiotic Resistance Bank. For example, E. coli AR-0493 and K. pneumoniae AR-0497 carry the plasmid that contains the most prevalent mcr-1 gene. E. coli AR-0538, Salmonella Typhimurium AR-0539 and AR-0635 contain the mcr-2, 3, and 4 genes, respectively. These genes encode the phosphoethanolamine transferase, which was originated form the chromosome of A. baumannii, such as AR-0310. […]. A. baumannii AR-0310 appears more sensitive to these two compounds and the MICs of colistin was reduced to 0.25 μg/mL.
General Methods. MDR strains E. coli AR-0493, AR-0346, and AR-0538, Salmonella Enteritidis AR-0496, Salmonella Typhimurium AR-0635, K. pneumoniae AR-0497, A. baumannii AR-0300 and AR-0310 were all obtained from the CDC & FDA Antibiotic Resistance Isolate Bank. E. coli K-12 was a gift from the Copley lab (Department of MCD Biology, University of Colorado Boulder). HeLa cells were purchased from the ATCC. All bacterial strains were grown on trypticase soy agar supplemented with 5% sheep blood (BAP). Bacteria were then cultured in Luria-Bertani (LB) medium at 35° C. until they achieve the log phase before screening or antimicrobial testing using CAMHB media. MIC, MRC, and checkerboard analyses and mammalian growth inhibition analyses in Hela cells were performed as described previously. More details are given in Supporting information.

SMILES | SI (Selective Index), ratio of GI50 and MRC
c1ccc(Nc2nc3nonc3nc2Nc2ccccc2)cc1 [Compound 7a] | 8.8
Cc1cccc(Nc2nc3nonc3nc2Nc2cccc(C)c2)c1 [Compound 7c] | 30
Cc1ccc(Nc2nc3nonc3nc2Nc2ccc(C)cc2)cc1 [Compound 7d] | 22
Fc1cccc(Nc2nc3nonc3nc2Nc2cccc(F)c2)c1 [Compound 7i] | 40
Fc1ccc(Nc2nc3nonc3nc2Nc2ccc(F)cc2)cc1 [Compound 7j] | 19
FC(F)(F)Oc1cccc(Nc2nc3nonc3nc2Nc2cccc(OC(F)(F)F)c2)c1 [Compound 7o] | 17
FC(F)(F)Oc1ccc(Nc2nc3nonc3nc2Nc2ccc(OC(F)(F)F)cc2)cc1 [Compound 7p] | 23
Cc1cccc(Nc2nc3nonc3nc2Nc2cccc(OC(F)(F)F)c2)c1 [Compound 7r] | 24
COc1ccccc1Nc1nc2nonc2nc1O [Compound 8e] | >24
Cc1cccc(Nc2nc3nonc3nc2Cl)c1 [ST024336, reference compound] | 5
